Measurements: PubChem BioAssay AID1224852 (National Center for Advancing Translational Sciences (NCATS), 2016)
This is a selection; strong and weak results do not stand in their true shares. Results filed as inconclusive are left out. The source made the active and inactive calls. The call rests on the fitted dose curve; in most records, active means well fitted curve in the direction sought with a large enough effect (not every such curve was filed as active); inconclusive means small, poorly fitted or top-dose-only effect, or effect the other way, or another doubt; inactive means no such curve, though single readings can be large or run the other way.

Assay: Cell viability assay for measurement of the protective activity of small molecules against cell death caused by Zika virus infection in human neural progenitor cells (hNPCs);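 further: 0% = ZIKV-infected cells without compound and 100% = uninfected cells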
Conditions: hNPC ZIKV-induced death protection, ATP luminescence, 72 h; at 46.1 µM (top of the series)
From the text: National Center for Advancing Translational Sciences [NCATS] Johns Hopkins University School of Medicine Florida State University Assay Overview: Zika virus infection causes cell death in certain cell types including human neural progenitor cells (hNPCs), astrocytes, and astrocytoma cell line (SNB-19). This cell viability assay measures the ATP content (level) in human neural progenitor cells (hNPCs) using a luminescence readout that is proportional to viable cell numbers. Decrease in the luminescence signal after Zika virus infection indicates the cell death caused by Zika virus. Small molecule inhibitors […] the decreased luminescence signal after Zika virus infection, indicating the protective effect of that small molecule on the cell death caused by Zika virus infection. […]
Assay Protocol Summary: The medium for hNPCs consists of DMEM/F12, N2 supplement (ThermoFisher, Cat.# 17502048), NEAA (ThermoFisher, Cat. # 11140050), 2 ug/ml heparin, 2 uM cyclopamine, and B27 (ThermoFisher, Cat. # 17504044). […] The luminescence intensity of the assay plates was measured using a ViewLux plate reader (PerkinElmer). […] The percentage inhibitions of the decreased cell viability by small molecule inhibitors were then calculated.

CCOP(=O)(CC)Oc1ccc([N+](=O)[O-])cc1 (configuration not stated)
protection, negative = more death: inactive: 13.1%

C/C1=C2N=C(/C=C3N=C(/C(C)=C4\[N-][C@@](C)([C@@H]5N=C1[C@](C)(CCC(=O)NC[C@@H](C)OP(=O)([O-])O[C@H]1[C@@H](O)[C@@H](n6cnc7cc(C)c(C)cc76)O[C@@H]1CO)[C@H]5CC(N)=O)[C@@](C)(CC(N)=O)[C@@H]4CCC(N)=O)[C@@](C)(CC(N)=O)[C@@H]\3CCC(N)=O)C(C)(C)[C@@H]/2CCC(N)=O.[C-]#N.[Co+3]
protection, negative = more death: inactive: -3.97%
